The test system of this experiment is […] cells. In words: microbe, parasite or virus in culture. Conditions: Severe acute respiratory syndrome coronavirus 2, NCI-H1975, in Mesocricetus auratus, 72 h, read-out: […].

As to `CCC(CC)COC(=O)[C@H](C)N[P@](=O)(OC[C@H]1O[C@@](C#N)(c2ccc3c(N)ncnn23)[C@H](O)[C@@H]1O)Oc1ccccc1` [Remdesivir, remdesivir], the viability at 1 µM lay within 75 to 80%.

For the origin of these results see patent publication US20240166738A1 (priority 2021, published 2024).
